Results of unrelated studies side by side (data: NIAID ChemDB).

Shared fields: target-level tests

Inhibition is in % at the dose shown (toxicity tests: loss of growth or viability). Conditions beyond the fields shown may differ between rows. Two numbers with a dash give a range or band. ICn is the concentration giving n% inhibition. An empty or dashed field is not shown.

smiles,strain,protein,endpoint,agent,dose,method,value
COc1cc(C(=O)N2[C@@H](c3nccs3)[C@H](c3noc(C)n3)C[C@@]2(CC(C)C)C(=O)O)ccc1C(C)(C)C,,RNA-dependent RNA polymerase,IC50,Hepatitis C virus,,,<50 µM
COc1ccc(S(=O)(=O)Nc2cnn3c(C4CCCCC4)c(-c4ccc(OCc5ccccc5)cc4)cnc23)cc1,,RNA-dependent RNA polymerase,IC50,Hepatitis C virus,,,>10 µM
O=C(Nc1ccc2cn[nH]c2c1)c1cc(NCCO)c(F)cc1F,,Reverse transcriptase,inhibition,Hepatitis B virus,0.1 µg/mL,,40%
N#Cc1ccc(-c2ccc(-c3nc4cc(C(=O)O)[nH]n4c(=O)c3C3CCCCC3)cc2)cc1,,RNA-dependent RNA polymerase,IC50,Hepatitis C virus,,,1–10 µM
O=c1c(O)c(-c2ccc(O)c(O)c2)oc2cc(O)c(O)c(O)c12,genotype 2a,RdRp,IC50,Hepatitis C virus,,nucleotide incorporation,20.5 µM
O=C(O)CCCC(=O)N[C@@H](CCC(=O)O)C(=O)N[C@@H](CCC(=O)O)C(=O)N[C@@H](CS)C(=O)O,,Nonstructural protein 3 NTPase/helicase,IC50,Hepatitis C virus,,,>16.7 µM
COc1cc(C(=O)N2[C@@H](c3cscn3)[C@H](c3noc(C)n3)C[C@@]2(CC(C)C)C(=O)O)ccc1C(C)(C)C,,RNA-dependent RNA polymerase,IC50,Hepatitis C virus,,,<50 µM
C=C[C@@H]1C[C@]1(NC(=O)[C@@H]1C[C@@H](Oc2cc(-c3ccccc3)nc3cc(OC)ccc23)CN1C(=O)[C@@H](NC(=O)OC(C)(C)C)C(C)(C)C)C(=O)NS(=O)(=O)c1ccccc1C#N,BMS,NS3/NS4A protease,IC50,Hepatitis C virus,,,<0.5 µM
O=C(O)CCC(=O)N[C@H](C(=O)N[C@@H](CCC(=O)O)C(=O)N[C@@H](CCC(=O)O)C(=O)NC1(C(=O)O)CC1)C(c1ccccc1)c1ccccc1,,Nonstructural protein 3 NTPase/helicase,IC50,Hepatitis C virus,,,>83.5 µM
O=C(Nc1ccc2[nH]ncc2c1)c1cc(NCCN2CCOCC2)c(F)cc1F,,Reverse transcriptase,IC50,Hepatitis B virus,,,0.01–0.1 µg/mL
COc1nc(NCCO)nc(Nc2ccc3[nH]ncc3c2)n1,,DNA polymerase,IC50,Hepatitis B virus,,,0.1–1 µg/mL
Oc1cccc(-c2cnc3c(-c4nn[nH]n4)cnn3c2C2CCCCC2)c1,,RNA-dependent RNA polymerase,IC50,Hepatitis C virus,,,>10 µM
Cc1nc([C@H]2C[C@@](CC(C)C)(C(=O)O)N(C(=O)c3ccc(C(C)(C)C)cc3)[C@H]2c2nccs2)no1,,RNA-dependent RNA polymerase,IC50,Hepatitis C virus,,,<50 µM
c1ccc(-c2ccc(-c3cnc4c(-c5nn[nH]n5)cnn4c3C3CCCCC3)cc2)cc1,,RNA-dependent RNA polymerase,IC50,Hepatitis C virus,,,1–10 µM
C=C[C@@H]1C[C@]1(NC(=O)[C@@H]1C[C@@H](Oc2cc(-c3ccccc3)nc3cc(OC)ccc23)CN1C(=O)[C@@H](NC(=O)COC)C(C)(C)C)C(=O)NS(=O)(=O)C1CC1,BMS,NS3/NS4A protease,IC50,Hepatitis C virus,,,<0.05 µM
COc1nc(Nc2ccc3cn[nH]c3c2)nc(N2CCN(CCO)CC2)n1,,DNA polymerase,inhibition,Hepatitis B virus,0.1 µg/mL,,20%
CC[C@H](C)[C@H](NC(=O)OC(C)(C)C)C(=O)N1C[C@H](Oc2cc(-c3ccccc3)nc3cc(OC)ccc23)C[C@H]1C(=O)NC1(C(=O)NS(=O)(=O)C2CC2)CC1,BMS,NS3/NS4A protease,IC50,Hepatitis C virus,,,<0.05 µM
CC(=O)N[C@@H](CC(=O)O)C(=O)N[C@H](CC(C(=O)O)C(=O)O)C(=O)N[C@H](C(=O)N[C@@H](CCC(=O)O)C(=O)N[C@@H](Cc1c[nH]c2ccccc12)C(=O)N[C@@H](CS)C(=O)C(=O)O)C(c1ccccc1)c1ccccc1,,NS3/NS4A serine protease,Ki,Hepatitis C virus,,,0.00003 µM
CCCN(NC(=O)[C@H]1C[C@@H](OCc2ccccc2)CN1C(=O)[C@@H](NC(=O)[C@@H](OC(=O)[C@@H](CC(=O)O)NC(=O)[C@H](CC(=O)O)NC(C)=O)[C@H](C)CC)C(C)C)C(=O)NC1CCc2ccccc21,,Serine protease,IC50,Hepatitis C virus,,,0.1 µM
Nc1nc2c(ncn2CC[C@@H](CO)COP(=O)(O)OP(=O)(O)OP(=O)(O)O)c(=O)[nH]1,,DNA polymerase,Ki,Hepatitis B virus,,,0.04 µM
Cc1noc([C@H]2C[C@@](CC(C)C)(C(=O)O)N(C(=O)c3ccc(C(C)(C)C)cc3)[C@H]2c2cccnc2)n1,,RNA-dependent RNA polymerase,IC50,Hepatitis C virus,,,<50 µM
C=C[C@@H]1C[C@]1(NC(=O)[C@@H]1C[C@@H](Oc2cc(-c3ccccc3)nc3cc(OC)ccc23)CN1C(=O)[C@@H](NC(=O)OC(C)(C)C)C1CCCC1)C(=O)NS(=O)(=O)C1CC1,BMS,NS3/NS4A protease,IC50,Hepatitis C virus,,,<0.05 µM
CC(=O)N[C@H](C(=O)N[C@@H](CCC(=O)O)C(=O)N[C@@H](Cc1ccc2ccccc2c1)C(=O)N[C@@H](CS)C(=O)O)C1CCCCC1,,Nonstructural protein 3 NTPase/helicase,inhibition,Hepatitis C virus,16.7 µM,,74%
COc1cc(C(=O)N2[C@@H](c3cccs3)[C@@H](c3nc(C)no3)C[C@@]2(CC(C)C)C(=O)O)ccc1C(C)(C)C,,RNA-dependent RNA polymerase,IC50,Hepatitis C virus,,,<50 µM
CC(Cc1ccccn1)Nc1cc(C(=O)Nc2ccc3cn[nH]c3c2)c(F)cc1F,,Reverse transcriptase,inhibition,Hepatitis B virus,0.01 µg/mL,,25%
CC[C@@H]1C[C@]1(NC(=O)[C@@H]1C[C@@H](Oc2cc(-c3ccccc3)nc3cc(OC)ccc23)CN1C(=O)[C@H](CC1CCCCC1)NC(=O)OC(C)(C)C)C(=O)NS(=O)(=O)C1CC1,BMS,NS3/NS4A protease,IC50,Hepatitis C virus,,,<0.05 µM
O=C(Nc1ccc2[nH]ncc2c1)c1cc(NCCO)c(F)cc1F,,Reverse transcriptase,inhibition,Hepatitis B virus,1 µg/mL,,78%
CC(=O)N[C@@H](CCC(=O)O)C(=O)N[C@H](CC(C(=O)O)C(=O)O)C(=O)N[C@H](C(=O)N[C@@H](CCC(=O)O)C(=O)N[C@@H](CC1CCCCC1)C(=O)N[C@@H](CS)C(=O)C(=O)O)C(c1ccccc1)c1ccccc1,,NS3/NS4A serine protease,Ki,Hepatitis C virus,,,0.014 µM
C=CC1CC1(NC(=O)[C@@H]1C[C@@H](Oc2cc(-c3ccccc3)nc3cc(OC)ccc23)CN1C(=O)[C@@H](NC(=O)OC(C)(C)C)C(C)(C)C)C(=O)NS(C)(=O)=O,BMS,NS3/NS4A protease,IC50,Hepatitis C virus,,,<0.05 µM
Nc1nc2c(ncn2CCC(CO)COP(=O)(O)OP(=O)(O)OP(=O)(O)O)c(=O)[nH]1,,DNA polymerase,Ki,Hepatitis B virus,,,0.04 µM
COc1ccc2c(O[C@@H]3C[C@H]4C(=O)C[C@]5(P(=O)(O)Cc6c(F)cccc6F)C[C@H]5CCCCCCC[C@H](CC(=O)OC5CCCC5)C(=O)N4C3)cc(-c3csc(NC(C)C)n3)nc2c1Cl,gt 3,Nonstructural protein 3 protease,Ki,Hepatitis C virus,,fluorescence,0.104 µM
COc1cc(C(=O)N2[C@@H](c3nccs3)[C@H](c3nc(C)no3)C[C@@]2(CC(C)C)C(=O)O)ccc1C(C)(C)C,,RNA-dependent RNA polymerase,IC50,Hepatitis C virus,,,<50 µM
Fc1cc(COc2ccc(-c3cnc4c(-c5nn[nH]n5)cnn4c3C3CCCCC3)cc2)cc(C(F)(F)F)c1,,RNA-dependent RNA polymerase,IC50,Hepatitis C virus,,,1–10 µM
Cc1noc([C@H]2C[C@@](CC(C)C)(C(=O)O)N(C(=O)c3ccc(C(C)(C)C)c(C)c3)[C@H]2c2nccs2)n1,,RNA-dependent RNA polymerase,IC50,Hepatitis C virus,,,<50 µM
CC(=O)N[C@H](C(=O)N[C@@H](CCC(=O)O)C(=O)N[C@@H](CCC(=O)O)C(=O)NC1(C(=O)O)CC1)C1CCCCC1,,Nonstructural protein 3 NTPase/helicase,IC50,Hepatitis C virus,,,>167 µM
COc1nc(Nc2ccc3cn[nH]c3c2)nc(NN2CCN(C)CC2)n1,,DNA polymerase,inhibition,Hepatitis B virus,1 µg/mL,,54%
O=C(O)CCCC(=O)N[C@H](C(=O)N[C@@H](CCC(=O)O)C(=O)N[C@@H](CCC(=O)O)C(=O)N[C@@H](CS)C(=O)O)C1CCCCC1,,Nonstructural protein 3 NTPase/helicase,inhibition,Hepatitis C virus,16.7 µM,,91%
COc1nc(Nc2ccc3[nH]ncc3c2)nc(N2CCCC2)n1,,DNA polymerase,inhibition,Hepatitis B virus,0.1 µg/mL,,23%
CC[C@H](C)[C@H](NC(=O)[C@@H](NC(=O)CCC(=O)O)C1CCCCC1)C(=O)N[C@@H](CC1CCCCC1)C(=O)NC1(C(=O)O)CC1,,Nonstructural protein 3 NTPase/helicase,inhibition,Hepatitis C virus,83.5 µM,,38%
O=C(Nc1ccc2[nH]ncc2c1)c1cc(NCCN2CCCC2)c(F)cc1F,,Reverse transcriptase,inhibition,Hepatitis B virus,1 µg/mL,,76%
CC(=O)N[C@@H](CC(=O)O)C(=O)N[C@H](CC(C(=O)O)C(=O)O)C(=O)N[C@H](C(=O)N[C@@H](CCC(=O)O)C(=O)N[C@@H](Cc1ccccc1)C(=O)N[C@@H](CS)C(=O)C(=O)O)C(c1ccccc1)c1ccccc1,,NS3/NS4A serine protease,Ki,Hepatitis C virus,,,0.00004 µM
COc1nc(Nc2ccc3cn[nH]c3c2)nc(N2CCOCC2)n1,,Nonstructural protein 5B,inhibition,Hepatitis C virus,10 µg/mL,,66%
C=COC(=O)N[C@H](C(=O)N1C[C@H](Oc2cc(-c3ccccc3)nc3cc(OC)ccc23)C[C@H]1C(=O)N[C@]1(C(=O)NS(=O)(=O)C2CC2)C[C@H]1C=C)C(C)(C)C,BMS,NS3/NS4A protease,IC50,Hepatitis C virus,,,<0.05 µM
CC(=O)N[C@@H](CC(=O)O)C(=O)N[C@H](CC(C(=O)O)C(=O)O)C(=O)N[C@H](C(=O)N[C@@H](CCC(=O)O)C(=O)N[C@@H](CC1CCCCC1)C(=O)N[C@@H](CS)C(=O)C(=O)O)C(c1ccccc1)c1ccccc1,,NS3/NS4A serine protease,Ki,Hepatitis C virus,,,0.00004 µM
COc1nc(Nc2ccc3cn[nH]c3c2)nc(N2CCC(O)CC2)n1,,DNA polymerase,inhibition,Hepatitis B virus,0.01 µg/mL,,12%
CC(C)C[C@H](NC(=O)CCC(=O)O)C(=O)N[C@@H](CCC(=O)O)C(=O)N[C@@H](CCC(=O)O)C(=O)N[C@@H](CS)C(=O)O,,Nonstructural protein 3 NTPase/helicase,inhibition,Hepatitis C virus,16.7 µM,,82%
O=C(Nc1ccc2cn[nH]c2c1)c1cc(NCCCn2ccnc2)c(F)cc1F,,Reverse transcriptase,IC50,Hepatitis B virus,,,0.1–1 µg/mL
C=C[C@@H]1C[C@]1(NC(=O)[C@@H]1C[C@@H](Oc2cc(-c3ccccc3)nc3cc(OC)ccc23)CN1C(=O)[C@H](CC(C)C)NC(=O)OC(C)(C)C)C(=O)NS(=O)(=O)C(C)C,BMS,NS3/NS4A protease,IC50,Hepatitis C virus,,,<0.05 µM
CN(C)CCNc1cc(C(=O)Nc2ccc3cn[nH]c3c2)c(F)cc1F,,Reverse transcriptase,inhibition,Hepatitis B virus,1 µg/mL,,39%
CCOC(=O)C1CCN(c2nc(Nc3ccc4[nH]ncc4c3)nc(OC)n2)CC1,,DNA polymerase,IC50,Hepatitis B virus,,,0.1–1 µg/mL
CC(C)C[C@H](NC(=O)[C@@H](NC(=O)OC(C)(C)C)C1CCCC1)C(=O)N[C@@H](CC(F)F)C(=O)C(=O)O,,NS3 serine protease,IC50,Hepatitis C virus,,,0.38 µM
CC(=O)N[C@@H](CC(=O)O)C(=O)N[C@H](Cc1ccccc1)C(=O)N[C@H](C(=O)N[C@@H](CCC(=O)O)C(=O)N[C@@H](CC1CCCCC1)C(=O)N[C@@H](CS)C(=O)C(=O)O)C(c1ccccc1)c1ccccc1,,NS3/NS4A serine protease,Ki,Hepatitis C virus,,,17 µM
CN(C)CCNc1cc(C(=O)Nc2ccc3[nH]ncc3c2)c(F)cc1F,,Reverse transcriptase,inhibition,Hepatitis B virus,1 µg/mL,,68%
CC(=O)N[C@@H](CC(=O)O)C(=O)N[C@H](CC(C(=O)O)C(=O)O)C(=O)N[C@@H](Cc1c[nH]c2c(O)cccc12)C(=O)N[C@@H](CCC(=O)O)C(=O)N[C@@H](CC1CCCCC1)C(=O)N[C@H](C(=O)O)C(=O)S,,NS3/NS4A serine protease,Ki,Hepatitis C virus,,,0.007 µM
CC(C)(C)c1ccc(C(=O)N2[C@@H](c3nccs3)[C@@H](c3nnco3)C[C@@]2(Cc2ccccc2)C(=O)O)cc1,,RNA-dependent RNA polymerase,IC50,Hepatitis C virus,,,<50 µM
CC(C)CNc1cc(C(=O)Nc2ccc3cn[nH]c3c2)c(F)cc1F,,Reverse transcriptase,inhibition,Hepatitis B virus,0.01 µg/mL,,18%
COc1nc(Nc2ccc3[nH]ncc3c2)nc(N2CCN(C(=O)c3cccnc3)CC2)n1,,DNA polymerase,inhibition,Hepatitis B virus,1 µg/mL,,58%